Compound potency records, mixed from different reports. Data source: NIAID ChemDB in PubChem.

Shared fields: cytotoxicity tests; cells: PBMC; measure: CC50

Rows are shuffled and stem from different studies.

{"SMILES": "Cc1ccc(N2C(=O)CCC2(C#N)c2ccccc2OCc2ccccc2)cc1", "read by": "absorbance", "result": "22.8 µM"}
{"SMILES": "O=[N+]([O-])c1ncnc2c1ncn2[C@@H]1O[C@H](CO)C[C@@H]1F", "result": ">80 µM"}
{"SMILES": "Cc1nc(CCCCCCC(=O)c2ccccc2)n2nc(NCCCCCCCCCCCCNCc3cn([C@H]4C=C[C@@H](CO)O4)c(=O)[nH]c3=O)ccc12", "result": "28 µM"}
{"SMILES": "COC(=O)[C@H](C)NP(=O)(OC[C@@H]1OC[C@H](n2cc(C)c(=O)[nH]c2=O)O1)Oc1ccccc1Cl", "read by": "MTT", "result": ">100 µM"}
{"SMILES": "Cn1cc2c(NC(=O)NCCc3ccc4c(n3)NCCC4)cccc2n1", "result": "2.7 µM"}
{"SMILES": "CCCCCCCCCCCCCCCCCCOCCOP(=O)(CO[C@H](C)Cn1cnc2c(N)ncnc21)OC1CC1", "read by": "luminescence", "result": "5.28 µM"}
{"SMILES": "Cc1cc(C)cc(Cn2c(=O)ccn(Cc3c(F)cccc3F)c2=O)c1", "result": "326 µM"}
{"SMILES": "CCNc1ncnc2c1ncn2[C@@H]1O[C@H](CO)C[C@@H]1F", "result": ">80 µM"}
{"SMILES": "O=c1[nH]c(=O)n([C@H]2O[C@@H](CO)CC2(F)F)cc1I", "result": ">100 µM"}
{"SMILES": "CN1CCN(c2nc(-c3cccs3)cc(-c3cccs3)n2)CC1", "result": "100 µM"}
{"SMILES": "Cc1ccc(C[C@@H](C)[C@@H](C)Cc2ccc(C)c(C)c2)cc1C", "read by": "trypan blue", "result": "35 µM"}
{"SMILES": "COC(=O)[C@@H](C)NP(=O)(OC[C@@H]1OC[C@H](n2cc(C)c(=O)[nH]c2=O)O1)Oc1ccccc1", "read by": "MTT", "result": ">100 µM"}
{"SMILES": "Cc1cccc(Cn2c(=O)ccn(CC#N)c2=O)c1", "result": "302 µM"}
{"SMILES": "CCCCCCCCCCCCCCOC(=O)c1cc(O)c(O)c(O)c1", "read by": "MTT", "result": "1800 µM"}
{"SMILES": "Cc1ccc(N2C(=O)CCC2(C#N)c2ccc(OC(C)C)cc2)cc1", "read by": "absorbance", "result": ">100 µM"}
{"SMILES": "CN(C)CCNc1c2c(nc3ccccc13)-c1ccccc1C2", "result": "1 µM"}
{"SMILES": "O=C(NCCc1ccc2c(c1)NCCC2)NCc1ccc(Cl)c(Cl)c1", "result": "50 µM"}
{"SMILES": "Cc1cn([C@@H]2O[C@H](COP(=O)(N[C@@H](C)C(=O)OC(C)C)Oc3ccccc3)C(F)(F)C2(F)F)c(=O)[nH]c1=O", "result": ">100 µM"}
{"SMILES": "O=C(Cc1ccc(F)c(F)c1)NCCc1ccc2c(n1)NCCC2", "result": "50 µM"}
{"SMILES": "Nc1nc(F)nc2c1ncn2[C@H]1O[C@@H](CO)C=C1F", "result": "25.8 µM"}
{"SMILES": "CC(C)(C)OC(=O)Nc1cccc(CCNC(=O)Nc2cccc(F)c2)n1", "result": "25 µM"}
{"SMILES": "Cc1cn([C@H]2CO[C@@H](COP(=O)(N[C@@H](C)C(=O)OCc3ccccc3)Oc3ccccc3)O2)c(=O)[nH]c1=O", "read by": "MTT", "result": ">100 µM"}
{"SMILES": "CC(C)c1ccc(C2(CN)CCC(=O)N2c2ccccc2)cc1", "read by": "absorbance", "result": "48.3 µM"}
{"SMILES": "O=c1[nH]cnc2c1ncn2[C@H]1O[C@@H](CO)[C@H](O)C1(F)F", "result": ">100 µM"}
{"SMILES": "NC(=NCCCCCCN=C(N)/N=C(\\N)N1CCN(c2cc3c(cc2F)c(=O)c(C(=O)O)cn3C2CC2)CC1)/N=C(\\N)N1CCN(c2cc3c(cc2F)c(=O)c(C(=O)O)cn3C2CC2)CC1", "read by": "XTT", "result": "100 µg/mL"}
{"SMILES": "Cc1cc(C)cc(Cn2c(=O)ccn(Cc3ccccc3)c2=O)c1", "result": "194 µM"}
{"SMILES": "Cc1ccc(NC(C#N)c2ccc(OCc3c(Cl)cccc3Cl)cc2)cc1", "read by": "absorbance", "result": "14 µM"}
{"SMILES": "CC(Cc1nc(-c2ccc(O)c(O)c2)cs1)n1cc(Cl)cn1", "read by": "MTS", "result": "20 µM"}
{"SMILES": "CCCCCCCCCCCCCCCCOC(=O)c1cc(O)c(O)c(O)c1", "read by": "MTT", "result": "1720 µM"}
{"SMILES": "O=c1ccn([C@H]2O[C@@H](CO)C=C2F)c(=O)[nH]1", "result": ">100 µM"}
{"SMILES": "Nc1ncnc2c1ncn2[C@H]1C[C@@H](CO)C=C1F", "read by": "MTT", "result": ">100 µM"}
{"SMILES": "NCC(NC(=O)c1ccc(-c2ccc(C(F)(F)F)c(F)c2)[nH]1)c1nc(CO)cs1", "read by": "MTT", "result": "15 µM"}
{"SMILES": "Cc1cc(C)cc(N2C(=O)CCC2(C#N)c2c(Cl)cccc2Cl)c1", "read by": "absorbance", "result": "59 µM"}
{"SMILES": "O=c1[nH]cnc2c1ncn2[C@H]1C[C@@H](CO)C=C1F", "read by": "MTT", "result": ">100 µM"}
{"SMILES": "O=C(NCCc1ccc2c(n1)NCCC2)Nc1c(F)cccc1F", "result": "50 µM"}
{"SMILES": "C#Cc1cn([C@H]2C[C@H](O)[C@@H](CO)O2)c(=O)[nH]c1=O", "result": ">100 µM"}
{"SMILES": "CCOc1cc(/C=N/NC(=O)Cn2nc(-c3ccccc3)c3c2-c2ccccc2S(=O)(=O)N3C)ccc1O", "result": "8.7 µM"}
{"SMILES": "Cc1nc(CCCCCCC(=O)c2ccccc2)n2nc(NCCCCCCCCNCc3cn([C@H]4C=C[C@@H](CO)O4)c(=O)[nH]c3=O)ccc12", "result": ">10 µM"}
{"SMILES": "O=C(NCCc1ccc2c(n1)NCCC2)Nc1ccc(OCCN2CCOCC2)cc1", "result": "50 µM"}
{"SMILES": "CN1c2c(-c3ccccc3)nn(CC(=O)N/N=C/c3cccc([N+](=O)[O-])c3)c2-c2ccccc2S1(=O)=O", "result": ">100 µM"}
{"SMILES": "O=C(O)[C@H]1O[C@@H](Oc2cc(O)cc(/C=C/c3ccc(O)cc3)c2)[C@H](O)[C@@H](O)[C@@H]1O", "read by": "MTT", "result": ">300 µM"}
{"SMILES": "O=C(NCCc1ccc2c(n1)NCCC2)NCc1cccc(F)c1", "result": "50 µM"}
{"SMILES": "COc1cc(Cn2c(=O)ccn(CC#N)c2=O)cc(OC)c1", "result": ">415 µM"}
{"SMILES": "COc1ncc(I)c(OC)n1", "result": ">100 µM"}
{"SMILES": "Nc1nc2c(ncn2[C@@H]2O[C@@H](CO)C=C2F)c(=O)[nH]1", "result": ">100 µM"}
{"SMILES": "CN1CCN(c2cc(-c3cccs3)nc3ccccc23)CC1", "result": "100 µM"}
{"SMILES": "Nc1ccn([C@H]2C[C@@H](CO)C=C2F)c(=O)n1", "read by": "MTT", "result": ">100 µM"}
{"SMILES": "OC[C@@H]1C[C@H](F)[C@H](n2cnc3c(NO)ncnc32)O1", "result": ">80 µM"}
{"SMILES": "Nc1ccn([C@@H]2O[C@@H](CO)C=C2F)c(=O)n1", "result": ">100 µM"}
{"SMILES": "CN1c2c(-c3ccccc3)nn(CC(=O)N/N=C/c3ccc([N+](=O)[O-])cc3)c2-c2ccccc2S1(=O)=O", "result": ">100 µM"}
{"SMILES": "Nc1ccn([C@@H]2O[C@H](CO)C(F)(F)C2(F)F)c(=O)n1", "result": ">100 µM"}
{"SMILES": "Cc1cn([C@H]2C[C@@H](CO)C=C2F)c(=O)[nH]c1=O", "read by": "MTT", "result": ">100 µM"}
{"SMILES": "Nc1ccn([C@H]2S[C@@H](CO)C=C2F)c(=O)n1", "result": ">100 µM"}
{"SMILES": "Cc1nc(CCCCCCC(=O)c2ccccc2)n2nc(NCCCCCCCCCCNCc3cn([C@H]4C=C[C@@H](CO)O4)c(=O)[nH]c3=O)ccc12", "result": "18 µM"}
{"SMILES": "COC(=O)[C@H](C)NP(=O)(OC[C@@H]1OC[C@H](n2cc(C)c(=O)[nH]c2=O)O1)Oc1ccc(C#N)cc1", "read by": "MTT", "result": ">100 µM"}
{"SMILES": "Cc1ccc(N2C(=O)CCC2(CN)c2ccccc2)cc1", "read by": "absorbance", "result": "54.1 µM"}
{"SMILES": "CCCCc1cn(-c2cccc(S(=O)(=O)Nc3cccc4cnccc34)c2)nn1", "read by": "fluorescence", "setting": "48 h", "result": "86.96 µM"}
{"SMILES": "O=c1ccn([C@@H]2C[C@H](CO)C=C2F)c(=O)[nH]1", "read by": "MTT", "result": ">100 µM"}
{"SMILES": "Cc1cn([C@H]2O[C@@H](CO)CC2(F)F)c(=O)[nH]c1=O", "result": ">100 µM"}
{"SMILES": "NC(=O)CCNC(=O)c1ccccc1SCc1ccc([N+](=O)[O-])o1", "read by": "XTT", "result": ">50 µM"}
{"SMILES": "CN1CCN(CCSc2nnc(-c3ccc4ccccc4c3)c3ccccc23)CC1", "result": "100 µM"}
{"SMILES": "CCCCCCCCCOC(=O)c1cc(O)c(O)c(O)c1", "read by": "MTT", "result": "2120 µM"}
{"SMILES": "Cc1cn([C@@H]2O[C@H](CO)C(F)(F)C2(F)F)c(=O)[nH]c1=O", "result": ">100 µM"}
{"SMILES": "C#Cc1cnc(C(C)=O)nc1C(C)=O", "result": ">100 µM"}
{"SMILES": "COC(=O)[C@H](C)NP(=O)(OC[C@@H]1OC[C@H](n2cc(C)c(=O)[nH]c2=O)O1)Oc1ccc(Br)cc1", "read by": "MTT", "result": "32 µM"}
{"SMILES": "O=C(NCCc1ccc2c(n1)NCCC2)NCc1ccc(Cl)c(F)c1", "result": "50 µM"}
{"SMILES": "CN(C)CCNCc1ccc(-c2cccc(-c3ccc(CNCCN(C)C)cc3)n2)cc1", "result": "10 µM"}
{"SMILES": "O=c1ccn([C@@H]2O[C@@H](CO)CC2(F)F)c(=O)[nH]1", "result": ">100 µM"}
{"SMILES": "CN(C)c1ncnc2c1ncn2[C@@H]1O[C@H](CO)C[C@@H]1F", "result": ">80 µM"}
{"SMILES": "Nc1ncnc2c1ncn2[C@@H]1C[C@H](CO)C=C1F", "read by": "MTT", "result": ">100 µM"}
{"SMILES": "COC(=O)[C@H](C)NP(=O)(OC[C@@H]1OC[C@H](n2cc(C)c(=O)[nH]c2=O)O1)Oc1ccccc1", "read by": "MTT", "result": ">100 µM"}
{"SMILES": "Cc1nc(CCCCCCC(=O)c2ccccc2)n2nc(NCCCCCCCCCCCCN)ccc12", "result": ">10 µM"}
{"SMILES": "Nc1ncnc2c1ncn2[C@H]1O[C@@H](CO)[C@H](O)C1(F)F", "result": ">100 µM"}
{"SMILES": "NCC1(c2ccccc2)CCC(=O)N1Cc1ccccc1", "read by": "absorbance", "result": ">100 µM"}
{"SMILES": "Nc1nc2c(ncn2[C@H]2O[C@@H](CO)[C@H](O)C2(F)F)c(=O)[nH]1", "result": ">100 µM"}
{"SMILES": "Nc1nc(=O)n([C@@H]2O[C@@H](CO)C=C2F)cc1F", "result": ">100 µM"}
{"SMILES": "CN(C)CCNc1nc(-c2ccc(SCCN(C)C)cc2)cc(-c2cccs2)n1", "result": "10 µM"}
{"SMILES": "CC(C)OC(=O)[C@H](C)NP(=O)(OC[C@H]1O[C@@H](n2cnc3c(=O)[nH]c(N)nc32)C(F)(F)C1(F)F)Oc1ccccc1", "result": ">100 µM"}
{"SMILES": "C#CCn1ccc(=O)n(Cc2cc(C)cc(C)c2)c1=O", "result": "295 µM"}
{"SMILES": "Nc1nc(=O)n([C@H]2O[C@@H](CO)CC2(F)F)cc1I", "result": ">100 µM"}
{"SMILES": "CN(C)CCNc1cc(-c2ccc3ccccc3c2)nc2ccccc12", "result": "10 µM"}
{"SMILES": "O=C(O)C(=O)/C=C(\\O)c1cc(Cc2ccccc2)cn(Cc2ccccc2)c1=O", "result": ">200 µM"}
{"SMILES": "OCCN(CCO)CCOc1nc(-c2cccs2)cc(-c2cccs2)n1", "result": "100 µM"}
{"SMILES": "O=C(NCCc1ccc2c(n1)NCCC2)Nc1cccc2[nH]ccc12", "result": "2.1 µM"}
{"SMILES": "O=c1ccn([C@H]2O[C@@H](CO)CC2(F)F)c(=O)[nH]1", "result": ">100 µM"}
{"SMILES": "O=c1ccn([C@@H]2O[C@@H](CO)C=C2F)c(=O)[nH]1", "result": ">100 µM"}
{"SMILES": "COC(=O)[C@H](Cc1ccccc1)NP(=O)(OC[C@@H]1OC[C@H](n2cc(C)c(=O)[nH]c2=O)O1)Oc1ccccc1", "read by": "MTT", "result": ">100 µM"}
{"SMILES": "Cc1cn([C@@H]2O[C@@H](CO)[C@H](O)C2(F)F)c(=O)[nH]c1=O", "result": ">100 µM"}
{"SMILES": "CCCCCCCCOC(=O)c1cc(O)c(O)c(O)c1", "read by": "MTT", "result": "1835 µM"}

CCn is the concentration with n% toxicity to the cells.